Results of unrelated studies side by side (data: NIAID ChemDB).

All rows: host cell toxicity; cell line: Vero cells; read-out: CC50

CCn: concentration that lowers growth or viability of the cells by n%. An empty or dashed field is not shown. Lines come from different laboratories, so protocols vary.

{"structure": "COc1ccc(Nc2ncnc3c(=N)n(NC(=O)c4ccco4)cnc23)cc1", "result": "3.56 µg/mL"}
{"structure": "COc1ccc(Cn2cnc3c(-c4ccco4)nccc32)cc1", "result": ">128 µM"}
{"structure": "Cc1ccc(C)n1-c1nc(-c2ccc(F)cc2)cs1", "read by": "MTT", "result": "266 µM"}
{"structure": "COc1c(O)cc(-c2oc3cc(O)cc(O)c3c(=O)c2OC)c(O)c1O", "read by": "MTT", "result": "13.2 µg/mL"}
{"structure": "O=[N+]([O-])c1ccc(-c2csc(-n3cccc3)n2)cc1", "read by": "MTT", "result": "243 µM"}
{"structure": "CC(=O)Nc1ccc(/C=N/NC(N)=S)cc1F", "read by": "MTT", "result": ">62.5 µg/mL"}
{"structure": "COc1cc2c(cc1/C=C/C(=O)c1ccc(OC)c(OC)c1)C1CC[C@@]3(C)C(CC[C@@H]3O)C1CC2", "read by": "neutral red", "result": "21.22 µM"}
{"structure": "O=c1oc(/C=C/c2ccc(C(F)(F)F)cc2)ns1", "read by": "ATP", "result": "41 µM"}
{"structure": "CC(C)(C)NC(=O)CN(C(=O)[C@H]1CC[C@@]2(C)C3CC=C4C[C@@H](O)CC[C@]4(C)C3CC[C@]12C)c1ccc(F)cc1", "read by": "crystal violet", "result": "176 µM"}
{"structure": "CCOC(=O)c1ccc(N2CCN(CCn3c(-c4ccccc4)nc4cc(C(=O)OCC)ccc43)CC2)c(N)c1", "read by": "MTT", "result": ">62.5 µg/mL"}
{"structure": "CC(=O)OC[C@]12CC[C@@]3(C)CC=C(C)C=C[C@H]3[C@@H]1CC[C@@H]2C(C)C", "read by": "fluorescence", "result": "196.4 µM"}
{"structure": "COc1cc2c(cc1C1CC(=O)c3cc(OC)c(OC)c(OC)c31)C1CC[C@@]3(C)C(CCC[C@@H]3OC(C)=O)C1CC2", "read by": "neutral red", "result": "55.37 µM"}
{"structure": "O=C(CNc1ccccc1[N+](=O)[O-])Sc1nnc(-c2ccncc2)o1", "read by": "MTT", "result": ">62.5 µg/mL"}
{"structure": "CC(C)[C@H]1CC[C@H]2[C@@H]3C=C[C@](C)(O)CC[C@]3(C)CC[C@]12CO", "read by": "fluorescence", "result": ">652.8 µM"}
{"structure": "O=C(CNc1ccc(Cl)cc1)Sc1nnc(-c2ccncc2)o1", "read by": "MTT", "result": ">62.5 µg/mL"}
{"structure": "COc1ccc(Nc2ncnc3c(=N)n(NC(C)=O)cnc23)cc1", "result": "46.52 µg/mL"}
{"structure": "O=c1oc(/C=C/c2ccc(OC(F)(F)F)cc2)ns1", "read by": "ATP", "result": "20 µM"}
{"structure": "CC(C)=CCC[C@H](C)C1CC[C@@H](C)c2c(O)cc(C)c([N+](=O)[O-])c21", "read by": "MTT", "result": "251 µM"}
{"structure": "COc1cc(O)c(-c2oc3cc(O)cc(O)c3c(=O)c2O)cc1O", "read by": "MTT", "result": "30.42 µg/mL"}
{"structure": "O=c1oc(/C=C/C(F)(F)F)ns1", "read by": "ATP", "result": "21 µM"}
{"structure": "Cc1cc(C)c2sc(NN3CCCC3)nc2c1", "read by": "luminescence", "result": ">40 µg/mL"}
{"structure": "c1ccc(-c2csc(-n3cccc3)n2)cc1", "read by": "MTT", "result": "233 µM"}
{"structure": "CCOC(=O)c1ccc(N2CCN(CCn3c(-c4ccc5c(c4)OCO5)nc4cc(C(=O)OCC)ccc43)CC2)c(N)c1", "read by": "MTT", "result": ">62.5 µg/mL"}
{"structure": "CCc1ccc(/C=C/c2nsc(=O)o2)cc1", "read by": "ATP", "result": "17 µM"}
{"structure": "O=C(CNc1cccc(Cl)c1)Sc1nnc(-c2ccncc2)o1", "read by": "MTT", "result": ">62.5 µg/mL"}
{"structure": "COc1ccc(Cn2ccc3c(-c4ccco4)nccc32)cc1", "result": "12 µM"}
{"structure": "N=c1c2ncnc(Nc3ccc(F)cc3)c2ncn1NC(=O)c1ccccc1", "result": "2.92 µg/mL"}
{"structure": "O=C(c1ccccc1)c1ccc(/C=C/c2nsc(=O)o2)cc1", "read by": "ATP", "result": "16 µM"}
{"structure": "O=C(CNc1ccccc1)Sc1nnc(-c2ccncc2)o1", "read by": "MTT", "result": ">62.5 µg/mL"}
{"structure": "Cc1ccc(C)n1-c1ccc(C(=O)NN2C(=O)c3c(Br)c(Br)c(Br)c(Br)c3C2=O)cc1", "read by": "MTT", "result": "251 µM"}
{"structure": "CCOC(=O)c1ccc(N2CCN(CCn3c(-c4ccc(Cl)cc4)nc4cc(C(=O)OCC)ccc43)CC2)c(N)c1", "read by": "MTT", "result": ">62.5 µg/mL"}
{"structure": "Clc1ccc2c(NCCn3cc(COc4ccc5ccccc5c4)nn3)ccnc2c1", "read by": "neutral red", "result": ">12 µM"}
{"structure": "CC1=CC[C@]2(C)CC[C@]3(CO)[C@@H](C(C)C)CC[C@H]3[C@@H]2C=C1", "read by": "fluorescence", "result": "42.2 µM"}
{"structure": "COc1cc2c(cc1/C=C/C(=O)c1ccc(C)cc1C)C1CC[C@@]3(C)C(CC[C@@H]3O)C1CC2", "read by": "neutral red", "result": "15.09 µM"}
{"structure": "CCCCCCCCCC/C=C\\C/C=C\\CCC[C@@H](O)C(=O)N[C@@H](COC1O[C@H](CO)[C@@H](O)[C@H](O)[C@H]1O)[C@H](O)[C@H](O)C/C=C\\CC/C=C/CCCCCCCCCCCCC", "read by": "MTT", "result": ">100 µg/mL"}
{"structure": "O=C(Nc1nnc(-c2ccc3c(c2)CCCC3)o1)c1ccc(CC=S)cc1", "read by": "luminescence", "result": "26.52 µg/mL"}
{"structure": "O=C(CNc1ccccn1)Sc1nnc(-c2ccncc2)o1", "read by": "MTT", "result": ">62.5 µg/mL"}
{"structure": "CN(C)c1cc2nc(C3CCCCC3)[nH]c2cc1NC(=O)c1ccc(OC(F)(F)F)c(F)c1F", "result": ">200 µg/mL"}
{"structure": "O=C(CNc1ccccc1O)Sc1nnc(-c2ccncc2)o1", "read by": "MTT", "result": ">62.5 µg/mL"}
{"structure": "Fc1ccc(-c2csc(-n3cccc3)n2)cc1", "read by": "MTT", "result": "261 µM"}
{"structure": "C[C@@H]1CC[C@]2(C(=O)O)CC[C@]3(C)C(CCC4[C@@]5(C)CC[C@H](O)C(C)(C)C5CC[C@]43C)C2[C@H]1C", "read by": "MTT", "result": "8.1 µg/mL"}

Repeating the final 5 entries:

structure,read by,result
O=C(CNc1ccccn1)Sc1nnc(-c2ccncc2)o1,MTT,>62.5 µg/mL
CN(C)c1cc2nc(C3CCCCC3)[nH]c2cc1NC(=O)c1ccc(OC(F)(F)F)c(F)c1F,,>200 µg/mL
O=C(CNc1ccccc1O)Sc1nnc(-c2ccncc2)o1,MTT,>62.5 µg/mL
Fc1ccc(-c2csc(-n3cccc3)n2)cc1,MTT,261 µM
C[C@@H]1CC[C@]2(C(=O)O)CC[C@]3(C)C(CCC4[C@@]5(C)CC[C@H](O)C(C)(C)C5CC[C@]43C)C2[C@H]1C,MTT,8.1 µg/mL